Test results from US20230401449A1, “MEANS AND METHODS FOR CLASSIFYING MICROBES” (UNIVERSITÉ DE LAUSANNE, priority 2020, published 2023).

Test system: Lake Geneva microbial community
Assay: 14C-labeled substrate incorporation, biomass yield of lake water community
Type: cell-based
Conditions: 3 days incubation

Compound: CCCCCCCCO [1-Octanol, 1-octanol]
- 14C based biomass yield (substrate 0.1 mg/l as sole carbon source): 0.469 ± 0.168 g/g
- 14C based biomass yield (substrate 1.0 mg/l as sole carbon source): 0.396 ± 0.024 g/g
- 14C based biomass yield (substrate 10 mg/l as sole carbon source): 0.233 ± 0.028 g/g
